Measurements published in patent publication US11857581B2, “Antiviral methods and compositions comprising probiotic bacterial molecules” (priority 2013, dated 2024).

Test system: E. coli O157:H7 strain VS94

CC(C)NCC(O)COc1cccc2ccccc12 (stereo not drawn) [β-blocker, propanolol]
% Adherence: 22%
